Experiment [1] concerns HIV-1 double mutant K103N/Y181C. Particulars: read-out: EC50 K103N/Y181C.
The target in experiment [2] is HIV-1 RT double mutant K103N/Y181C (Human immunodeficiency virus type 1 group M subtype B, UniProt P03366, K702N/Y780C). Particulars: read-out: IC50 K103N/Y181C.
Experiment [3] deals with HIV-1 wild type reverse transcriptase (Human immunodeficiency virus type 1 group M subtype B, UniProt P03366). Particulars: read-out: IC50 WT RT.
Experiment [4] concerns HIV-1 wild type. Particulars: read-out: EC50 WT RT.

Each structure is given as a SMILES string. Like-named read-outs stand apart in the source and are kept apart here.

For the molecule `CCN1c2ncc(CCOc3ccc(-c4ccncc4)cc3C)cc2C(=O)N(C)c2cccnc21`, the EC50 in experiment [1] and in experiment [4] was < 10 nM throughout. The IC50 in experiment [2] and in experiment [3] was < 50 nM in each case.

As to `CCOC(=O)c1csc(-c2ccc(OCCc3cnc4c(c3)C(=O)N(C)c3cccnc3N4CC)cc2)n1`, the IC50 was > 100 nM in experiment [2] and < 50 nM in experiment [3] (wild type RT).

Turning to `CCN1c2ncc(CCOc3ccc(-c4ccc(C(=O)O)c(Cl)c4)cc3)cc2C(=O)N(C)c2cccnc21`, the EC50 in experiment [1] was > 50 nM; in experiment [4] it was 10 to 50 nM. Moreover, the IC50 in experiment [2] was 50 to 100 nM; in experiment [3] (wild type RT), < 50 nM.

For the molecule `CCN1c2ncc(CCOc3ccc(-c4csc(C(=O)O)c4)cc3C)cc2C(=O)N(C)c2cccnc21`, the EC50 is 10 to 50 nM in experiment [1] and < 10 nM in experiment [4]. Besides, the IC50 in experiment [2] and in experiment [3] was < 50 nM in each case.

As for `CCN1c2ncc(CCOc3ccc(-c4ccc[n+]([O-])c4)cc3C)cc2C(=O)Nc2c(C)ccnc21`, in experiment [1], the EC50 is < 10 nM. Further, the IC50 in experiment [2] is < 50 nM.

For `Cc1cc(-c2ccc[n+]([O-])c2)ccc1OCCc1cnc2c(c1)C(=O)Nc1c(C)ccnc1N2C1CC1`, the EC50 in experiment [1] was 10 to 50 nM; in experiment [4], < 10 nM. Besides, the IC50 in experiment [2] lay within 50 to 100 nM.

In the case of `CCN1c2ncc(CCOc3ccc(-c4ccc(C(=O)O)nc4)cc3C)cc2C(=O)N(C)c2cccnc21`, the EC50 in experiment [1] and in experiment [4] was < 10 nM throughout. In addition, in experiment [2], the IC50 is < 50 nM.

Turning to `CCN1c2ncc(CCOc3ccc(-c4ccc(C(=O)O)c[n+]4[O-])cc3C)cc2C(=O)N(C)c2cccnc21`, the EC50 in experiment [1] and in experiment [4] was 10 to 50 nM each time. In addition, the IC50 in experiment [2] and in experiment [3] (wild type RT) was < 50 nM each time.

Consider `CCN1c2ncc(CCOc3ccc(-c4ccc(CC(=O)O)c(F)c4)cc3C)cc2C(=O)N(C)c2cccnc21`, for which the EC50 in experiment [1] and in experiment [4] was < 10 nM throughout. For the same molecule, the IC50 in experiment [2] was < 50 nM.

Consider `CCN1c2ncc(CCOc3ccc(-c4ccc(C(=O)O)cn4)cc3C)cc2C(=O)N(C)c2cccnc21`, for which the EC50 in experiment [1] was in the range of 10 to 50 nM. For the same molecule, the IC50 in experiment [2] and in experiment [3] (wild type RT) was < 50 nM in each case.

Consider `CCN1c2ncc(CCOc3ccc(-c4cncc(C(=O)O)c4)cc3C)cc2C(=O)N(C)c2cccnc21`, for which the IC50 in experiment [2] is < 50 nM.

As to `CCN1c2ncc(CCOc3ccc(-n4nc(C(=O)O)cc4C)cc3C)cc2C(=O)N(C)c2cccnc21`, the EC50 in experiment [1] was > 50 nM; in experiment [4], 10 to 50 nM. The IC50 in experiment [2] is > 100 nM; in experiment [3] (wild type RT) it was < 50 nM.

For `CCN1c2ncc(CCOc3ccc(-c4cc(OC)c(O)c(C(=O)O)c4)cc3C)cc2C(=O)N(C)c2cccnc21`, the EC50 in experiment [1] was > 50 nM. Also, the IC50 in experiment [2] and in experiment [3] (wild type RT) was < 50 nM throughout.

Values taken from patent publication US6806265B2, “Non-nucleoside reverse transcriptase inhibitors” (priority 2002, dated 2004).
